Values from PubChem BioAssay AID504761 (Drosophila RNAi Screening Center, 2011)
The deposit covers about 22,000 reagents; below is a random part of those with a known target gene and a result. In the full data, 116 (0.52%) got an active call. 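Calls depend on retest data that are not deposited; infection was ranked per plate without normalising between plates; the unit of the infection score is not given.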 The raw values are shown without normalisation. Reagents against one gene are numbered here. A plus sign joins genes that one reagent is predicted to hit. Not stated in the record: the amount of reagent, the time to read-out.

Aim: 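Insect host genes that dengue virus relies on to spread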 (primary screen)
Cells: D.Mel-2 cells from Drosophila
Reagents: long dsRNA against Drosophila genes
Conditions: infection with dengue virus type 2; dose and infection time not stated
Measurement: 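Per well on two replicate plates, imaging gave the percent of cells positive for viral envelope protein, ranked by infection, and a nuclear count of cells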
Reading the numbers: infection score: higher = more virus-infected cells; cell count: higher = more cells in the well
Rule for the call: 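Low infection ranks in the two replicates (chance level up to 0.065) followed by a retest with a 1.5-fold or larger significant decrease, p below 0.05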
Calls: active = confirmed: knock-down lowers infection; inactive = not picked or not confirmed

| target gene | reagent no. | infection score, replicate 1 | infection score, replicate 2 | cell count, replicate 1 | cell count, replicate 2 | call |
| --- | --- | --- | --- | --- | --- | --- |
| CG18180 | 1 | 5.18 | 3.09 | 6063 | 6443 | inactive |
| CG18180 | 2 | 7.34 | 3.31 | 6088 | 6471 | inactive |
| beat-VII (beaten path VII) | 1 | 7.71 | 3.54 | 4839 | 5196 | inactive |
| beat-VII (beaten path VII) | 2 | – | 19.4 | 375 | 2982 | inactive |
| beat-VII (beaten path VII) | 3 | 3.53 | 23.2 | 5075 | 3670 | inactive |
| Vm32E (Vitelline membrane 32E) | 1 | – | 2.05 | 482 | 831 | inactive |
| Vm32E (Vitelline membrane 32E) | 2 | 10.5 | 4.06 | 5348 | 5984 | inactive |
| CG18284 | 1 | 8.13 | 8.24 | 6062 | 6478 | inactive |
| CG18284 | 2 | 0.87 | 1.42 | 6520 | 6912 | inactive |
| CG18284 | 3 | 17.5 | 18.9 | 6445 | 5925 | inactive |
| CG33964 + CG13175 | 1 | 14.9 | 11.2 | 5464 | 6670 | inactive |
| CG33964 + CG13175 | 2 | 14 | 4.07 | 5564 | 6873 | inactive |
| CG33964 + CG13175 | 3 | 7.15 | 9.37 | 6212 | 4707 | inactive |
| gbb (glass bottom boat) | 1 | 3.06 | 3.08 | 6607 | 7043 | inactive |
| gbb (glass bottom boat) | 2 | 4.17 | 1.92 | 6194 | 6212 | inactive |
| CG33178 | 1 | 4.47 | 5.33 | 6327 | 6393 | inactive |
| CG3565 | 1 | 10.9 | 18.1 | 6292 | 5711 | inactive |
| wcy (wacky) | 1 | 1.07 | 1.02 | 6355 | 6007 | inactive |
| wcy (wacky) | 2 | 7.46 | 3.21 | 4880 | 5538 | inactive |
| ths (thisbe) | 1 | 1.57 | 5.42 | 6890 | 6699 | inactive |
| ths (thisbe) | 2 | 2.29 | 3.93 | 6716 | 6662 | inactive |
| Phf7 (PHD finger protein 7) | 1 | 15.2 | 5.24 | 6628 | 6222 | inactive |
| yata | 1 | 1.75 | 4.91 | 1654 | 5849 | inactive |

Part of the list above in another layout.
ths (thisbe) #2: infection score, replicate 1 = 2.29; infection score, replicate 2 = 3.93; cell count, replicate 1 = 6716; cell count, replicate 2 = 6662; call = inactive
Phf7 (PHD finger protein 7): infection score, replicate 1 = 15.2; infection score, replicate 2 = 5.24; cell count, replicate 1 = 6628; cell count, replicate 2 = 6222; call = inactive
